PubChem BioAssay AID504761 | Drosophila RNAi Screening Center, 2011
The deposit covers about 22,000 reagents; shown is a random part of those that have a named target and a result. Over the whole deposit, 116 (0.52%) are marked active. 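Calls depend on retest data that are not deposited; infection was ranked per plate without normalising between plates; the unit of the infection score is not given.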 Raw values are not corrected between plates. Unmarked entries are inactive. No sequences are given here. Not given: the amount of reagent, the time to read-out.

- Test: 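Genome-wide fly cell screen for genes dengue virus requires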 (primary screen)
- System: D.Mel-2 cells from Drosophila
- Knock-down reagent: long dsRNA against Drosophila genes
- Treatment: infection with dengue virus type 2; dose and infection time not stated
- Read-out: 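Cells stained for dengue envelope protein and imaged; percent of infected cells per well on duplicate plates, ranked by infection, with stained nuclei counted for cell number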
- Reading the numbers: infection score: higher = more virus-infected cells; cell count: higher = more cells in the well
- Rule for the call: 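Very low infection ranking in both replicate wells (chance probability at most 0.065), then a retest showing infection dropped 1.5-fold or more at p below 0.05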
- Meaning of the calls: active = confirmed: knock-down lowers infection; inactive = not picked or not confirmed

The opening 2 entries, ahead of the listing:
| target gene | dsRNA | infection score, replicate 1 | infection score, replicate 2 | cell count, replicate 1 | cell count, replicate 2 |
| --- | --- | --- | --- | --- | --- |
| Lztr1 | DRSC18176 | 9.13 | 9.06 | 3306 | 5208 |
| Lztr1 | DRSC18647 | 5.2 | 8.53 | 1327 | 5335 |

Results, from the start:
| target gene | dsRNA | infection score, replicate 1 | infection score, replicate 2 | cell count, replicate 1 | cell count, replicate 2 |
| --- | --- | --- | --- | --- | --- |
| Lztr1 | DRSC18176 | 9.13 | 9.06 | 3306 | 5208 |
| Lztr1 | DRSC18647 | 5.2 | 8.53 | 1327 | 5335 |
| Lztr1 | DRSC26706 | 2.62 | 10.3 | 6309 | 5504 |
| Had1 | DRSC20216 | 6.37 | 4.74 | 6275 | 6417 |
| Rcd-1 | DRSC19569 | 2.62 | 3.37 | 5849 | 5794 |
| CG9973 (retired record) | DRSC08646 | 1.31 | 4.41 | 5636 | 5447 |
| CG9973 (retired record) | DRSC26922 | 4.46 | 4.65 | 6856 | 6446 |
| CG30050 | DRSC05342 | 3.61 | 1.31 | 6263 | 5942 |
| CG13116 | DRSC02214 | 6.13 | 4.84 | 6509 | 6709 |
| CG13116 | DRSC21945 | 5.51 | 21 | 6775 | 2873 |
| CG13116 | DRSC26916 | 20 | 8.24 | 6797 | 7042 |
| U2af38 | DRSC00796 | 6.35 | 2.59 | 4742 | 5293 |
| U2af38 | DRSC28068 | 27.9 | 25 | 4928 | 3380 |
| Tdc1 | DRSC04942 | 0.11 (active) | 0.02 | 6519 | 6354 |
| CG17163 | DRSC20901 | 11.3 | 2.61 | 6066 | 6012 |
| CG13392 | DRSC02262 | 2.61 | 2.96 | 5969 | 6420 |
| CG18336 | DRSC06334 | – | 12.1 | 472 | 6897 |
| CG42237 | DRSC19891 | 3.38 | 2.6 | 6240 | 6273 |
| Ilp2 | DRSC10968 | 7.8 | 5.22 | 6561 | 6548 |
| Ilp2 | DRSC29688 | 25.8 | 23.7 | 1521 | 6112 |
| CG13361 | DRSC17896 | 11 | 6.39 | 4026 | 5287 |
| CG13361 | DRSC29728 | 11.9 | 8.56 | 6166 | 5955 |
| CG1647 | DRSC15134 | 9.23 | 2.13 | 6435 | 6541 |
| awd | DRSC16906 | 3.39 | 4.44 | 6580 | 5267 |
| CG14545 | DRSC14889 | 1.17 | 2.94 | 6056 | 6387 |
| CG14545 | DRSC27728 | 3.81 | 4.26 | 6004 | 7214 |
| Nepl15 | DRSC15630 | 3.46 | 6.37 | 6627 | 6691 |
| CG9953 | DRSC11106 | 2.23 | 2.71 | 5914 | 6136 |
| Der-2 | DRSC15021 | 3.12 | 0.35 | 6087 | 6316 |
| Alp8 | DRSC04353 | 25.7 | 15.5 | 5992 | 5919 |
| Alp8 | DRSC27635 | 6.82 | 5.94 | 6236 | 6467 |
| CG30265 | DRSC21592 | 48 | 9.4 | 5388 | 1159 |
| Mettl14 | DRSC03073 | 1.33 | 4.02 | 6600 | 5742 |
| Rgk2 | DRSC06503 | 3.43 | 0.91 | 5541 | 6015 |
| Rgk2 | DRSC21651 | 2.81 | 3.12 | 5689 | 6312 |
| Rgk2 | DRSC25737 | 7.6 | 2.09 | 5788 | 5730 |
| Rgk2 | DRSC29628 | 14 | 21.1 | 2878 | 5535 |
| CG3500 | DRSC04379 | 2.67 | 6.58 | 6554 | 6698 |
| CG3500 | DRSC26614 | 1.88 | 8.31 | 6437 | 5719 |
